According to article PMC7092418 (Genes and Environment, 2020):

Test system: S. typhimurium TA100
Assay: Ames mutagenicity assay, strain TA100 (hisG46, pKM101)
Conditions: slope of dose-response curve, S9 for AFB1, AF-2: only zero plus 2 first doses

Aflatoxin B1
Specific mutagenicity (TA100, IPTG 0.2 mM in top agar): 692 revertants/plate/nmole
Specific mutagenicity (TA100, no IPTG): 846 revertants/plate/nmole
